Reference: PubChem BioAssay AID624099 (ICCB-Longwood, 2012)
The deposit covers about 21,000 reagents; shown is a random part of them. In the full data, 497 (2.4%) got an active call. 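Higher z means weaker E2 silencing; only reporter increases were scored, and knock-downs that hurt cell survival may mask genuine repressor factors.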 Reagents against one gene are numbered here. No sequences are given here.

Screen: 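Host factors E2 relies on to silence an HPV18 LCR reporter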 (primary screen)
Cell system: human C33A cervical carcinoma cells (HPV-negative) stably expressing BPV1 E2 and an HPV18 LCR luciferase reporter
Reagent: siRNA pool against human genes, 40 nM
Time to read-out: 72 h
Measured: 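HPV18 LCR reporter light per well, converted to plate-wise z-scores that exclude control wells, and averaged over triplicate plates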
Direction: mean z-score and z-score: higher = stronger reporter signal, weaker E2 silencing
Active means: 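Hit if mean z-score reaches 2 and two or more of three replicate z-scores also reach 2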

mean z-score	z-score, replicate A	z-score, replicate B	z-score, replicate C	activity call	gene knocked down	reagent
-0.64	-0.44	-0.71	-0.78	inactive	GPALPP1	1
-1	-1.34	-1.02	-0.64	inactive	REV3L	1
0.42	0	0.43	0.83	inactive	CEP89	1
-1.59	-2.05	-1.48	-1.24	inactive	RPS9	1
-2.19	-2.13	-2.53	-1.92	inactive	CYP4F12	1
1.57	1.55	1.73	1.43	inactive	ATP6V0D1	1
-1.16	-1.18	-1.27	-1.04	inactive	DYM	1
0.22	0.3	0.17	0.18	inactive	CYSLTR2	1
0.73	0.52	0.6	1.07	inactive	NEU4	1
0.19	0.47	-0.09	0.19	inactive	LOC389687 (retired record)	1
0.63	0.39	0.57	0.92	inactive	LOC400856 (retired record)	1
-1.11	-0.47	-1.82	-1.05	inactive	IGFBP7	1
0.44	0.66	0.35	0.3	inactive	SAXO6	1
0.22	0.33	0.21	0.12	inactive	HLF	1
-0.04	-0.03	0.44	-0.52	inactive	SETD6	1
1.09	0.93	1.33	1.01	inactive	KDM4D	1
-0.98	-0.77	-1.05	-1.13	inactive	ZFC3H1	1
0.34	0.58	0.39	0.06	inactive	PDAP1	1
-0.28	-0.34	-0.3	-0.2	inactive	DAB1	1
-1.37	-0.92	-1.5	-1.68	inactive	EXO1	1
0.99	0.9	1.01	1.07	inactive	SLC16A7	1
-0.88	-0.87	-0.82	-0.95	inactive	NHSL2	1
0.89	0.7	1.23	0.73	inactive	NHSL2	2
0.25	0.27	0.51	-0.04	inactive	ASB1	1
0.22	0.15	0.2	0.32	inactive	HIC2	1
-0.15	-0.34	-0.11	0.01	inactive	ZNF563	1
-0.47	-0.56	-0.5	-0.34	inactive	PAGE4	1
-0.3	-0.15	-0.41	-0.33	inactive	PRKAB2	1
-2.48	-1.96	-2.8	-2.68	inactive	UBC	1
1.44	1.61	1.12	1.58	inactive	MEF2C	1
-0.69	-0.88	-0.44	-0.77	inactive	CD320	1
0.67	0.76	0.69	0.58	inactive	CARNMT1	1
1.57	1.44	1.61	1.67	inactive	LOC390234 (retired record)	1
0.25	0.25	0.28	0.21	inactive	CCNB2	1
0.82	0.8	0.66	0.99	inactive	ASXL1	1
0.81	0.82	0.88	0.72	inactive	CD180	1
1.59	1.36	1.68	1.75	inactive	XAGE5	1
0.11	0.1	0.34	-0.1	inactive	SRF	1
0.92	0.92	1.12	0.72	inactive	RNPC3	1
-0.22	-0.37	-0.3	0.01	inactive	CRISPLD2	1
0.89	0.84	0.9	0.92	inactive	GIGYF1	1
0.86	0.53	0.87	1.18	inactive	MYOC	1
0.44	0.63	-0.02	0.69	inactive	LXN	1
-1.1	-0.87	-1.5	-0.91	inactive	LINC03066	1
0.23	0.19	0.54	-0.05	inactive	UBE2I	1
-0.67	-0.81	-0.59	-0.61	inactive	ASIC3	1
3.15	3.16	3.07	3.22	active	ATXN7	1
-0.01	-0.25	-0.29	0.52	inactive	ASIC1	1
-0.59	-0.3	-0.74	-0.73	inactive	FTHL17	1
-0.33	-0.65	0.01	-0.37	inactive	HMGCL	1
-0.51	-0.19	-0.48	-0.86	inactive	DMAP1	1
-0.36	-0.22	-0.51	-0.33	inactive	FOXG1	1
1.44	1.38	1.44	1.51	inactive	FOXG1	2
0.87	0.79	0.8	1.01	inactive	DPT	1
-0.35	-0.99	-0.25	0.18	inactive	METTL8	1
0.12	0.29	0.12	-0.05	inactive	FBXO33	1
-1.7	-1.39	-1.84	-1.88	inactive	LINC02111	1

Look-ups from above:
EXO1, activity call → inactive
METTL8, z-score, replicate A = -0.99
For “z-score, replicate C”, REV3L has -0.64
Value for CCNB2 under “mean z-score”: 0.25
Value for HIC2 under “activity call”: inactive
